# Test system: P. acnes CIP53.117
# Details: P. acnes CIP53.117, Wilkins-Chalgren broth, 36° C., anaerobic, at least 72 h
row,SMILES,MIC
1,CC(C)(C)OC(=O)Oc1ccccc1C(=O)OOC(=O)c1ccccc1OC(=O)OC(C)(C)C,160 µg/mL
2,O=C(Oc1ccccc1C(=O)OOC(=O)c1ccccc1OC(=O)OC1CCCCC1)OC1CCCCC1,320 µg/mL
3,O=C(OOC(=O)c1ccccc1OC(=O)C1CCCCC1)c1ccccc1,320 µg/mL

# — patent US9102607B2 (priority 2009, dated 2015)
